Laboratory results taken from patent US20160272977.

Biological target: T1, M.HhaI (UniProt P05102)
T1 sequence (looked up, limits assumed): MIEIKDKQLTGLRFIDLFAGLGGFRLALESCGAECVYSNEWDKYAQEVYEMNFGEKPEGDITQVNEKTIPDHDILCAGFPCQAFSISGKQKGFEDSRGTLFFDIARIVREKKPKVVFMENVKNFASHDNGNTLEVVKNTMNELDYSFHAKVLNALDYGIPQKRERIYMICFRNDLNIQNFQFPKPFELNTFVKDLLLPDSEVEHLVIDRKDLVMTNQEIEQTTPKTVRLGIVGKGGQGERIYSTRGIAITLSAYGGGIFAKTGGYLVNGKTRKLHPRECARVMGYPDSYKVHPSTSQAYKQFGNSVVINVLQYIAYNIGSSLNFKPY
Test: inhibition of the protein
Conditions: little to no inhibition at 5 uM RNA, pUC19 substrate, purified recombinant protein

Row | Sequence | activity on this sequence (label: 5'-33P in pull-down, variant of asCEBPα-2) | activity on this sequence
1 | GACAGUGGAGAGGGGCGGAGCGG [asCEBPα-2HPE] | not active | –
2 | UUAAUGCUAAUCGUGAUAGGGGU [miR-155-5p] | – | not active

Negatives hold for the conditions tested. Protein sequences can lack the tags named with them.
